Compound potency records, mixed from different reports. Data source: NIAID ChemDB in PubChem.

Common to all: whole-cell or culture tests; agent: Candida albicans

MIC50, MIC90 and the like: level of inhibition, or share of isolates inhibited.

compound	read-out	method	setting	strain	result
O=Cc1cc(-c2ccc([N+](=O)[O-])cc2)no1	MIC				50 µg/mL
COc1cc(/C=C2\CSc3ccccc3C2=O)ccc1O	MIC				50 µg/mL
CCCCCCCCC(Cn1ccnc1)c1ccc(Br)cc1	MIC				10 µg/mL
CCCCn1sc2ncccc2c1=O	MIC				20 µg/mL
CCC(=O)/C=C1\Sc2ccccc2N1/C1=C/CCCCCCCCCC1	MIC			ATCC 14053	≥100 µg/mL
COc1ccccc1OC/C(=N/O)c1ccccc1	MIC	broth dilution	48 h	ATCC 10231	>125 µg/mL
Clc1ccc(CCC(Cn2ccnc2)c2ccc(Cl)cc2Cl)c(Cl)c1	MIC				>100 µg/mL
O=C(COc1cccc(Cl)c1)c1ccccc1	MIC	broth dilution	48 h	ATCC 10231	>125 µg/mL
CCCCCCN=c1ssc2ncccc12	MIC				25 µg/mL
COc1ccc2c(c1)C(=O)/C(=C/c1ccccc1OC)CO2	MIC				6 µg/mL
O[C@](Cn1cncn1)(Cn1cnc(/C=C/c2ccc(OCC(F)(F)C(F)F)cc2)n1)c1ccc(F)cc1F	MIC			Isolate I1-39	2 µg/mL
CCCCCCn1sc2ncccc2c1=S	MIC				30 µg/mL
Clc1ccc(/C(Cn2ccnc2)=N/OCc2ccccc2)c(Cl)c1	MIC			5M	64 µg/mL
O=C1S/C(=C\c2ccc(Cl)cc2Cl)C(=O)N1CC(O)(Cn1nccn1)c1ccc(F)cc1F	MIC80			CaCYP51	0.03 µg/mL
OC(CCn1ccnc1)c1cccc(C(O)c2ccc(Cl)cc2)c1	MIC	broth dilution		RTCC1024	>64 µg/mL
O/N=C(/COc1cccc(F)c1)c1ccccc1	MIC	broth dilution	24 h	ATCC 10231	>125 µg/mL
Cc1onc(-c2ccc(Cl)cc2Cl)c1C=O	EC50				47.91 µg/mL
Oc1ccc2c(c1)CCc1ccc(cc1)Oc1cc(ccc1O)CCc1cccc(O)c1-2	MIC80	broth dilution		YEM30	16 µg/mL
O=C1S/C(=C\c2ccncc2)C(=O)N1CC(O)(Cn1nccn1)c1ccc(F)cc1F	MIC80			CaCYP51	4.51 µg/mL
c1ccc(CO/N=C(/Cn2ccnc2)c2ccccc2)cc1	MIC			CA2	2 µg/mL
Cc1ccc(S(=O)(=O)NC(=O)Nc2cccc(S(=O)(=O)Nc3ccc4c(c3)Sc3ccccc3O4)c2)cc1	MIC			C316	0.5 µg/mL
CC1(C)CC[C@]2(C(=O)O)CC[C@]3(C)C(=CC[C@@H]4[C@@]5(C)CC[C@H](OC6O[C@H](CO)[C@@H](O)[C@H](O)[C@H]6O)[C@@](C)(CO)[C@@H]5CC[C@]43C)[C@@H]2C1	MFC			Y0109	>100 µg/mL
COc1ccc(N2CCN(c3ccc(C(=O)N[C@H]4CCCNC(=O)C5C[C@H](N)CN5C(=O)C(C(C)O)NC(=O)C(CCc5ccc(O)cc5)NC(=O)C5C[C@@H](O)CN5C(=O)C(C(C)O)NC4=O)cc3)CC2)cc1	MIC			ATCC 10231	3.12 µg/mL
CN[C@@H]1[C@H](O[C@@H]2O[C@H](CO)[C@@H](O)[C@H](S(=O)(=O)O)[C@H]2O)[C@@H](O)[C@H](O[C@H]2c3cc(C)c(C(=O)N[C@H](CO)C(=O)O)c(O)c3-c3c(cc4c(c3O)C(=O)c3cc(OC)cc(O)c3C4=O)[C@@H]2O)O[C@@H]1C	MIC			A9540	12.5 µg/mL
O=S(=O)(Nc1ccc2c(c1)Sc1ccccc1O2)c1ccc(I)cc1	MIC			C316	10 µg/mL
CCCCCOc1ccc(-c2ccc(-c3ccc(C(=O)N[C@H]4CCCNC(=O)[C@@H]5C[C@H](NC)CN5C(=O)[C@H]([C@@H](C)O)NC(=O)[C@H](CCc5ccc(O)cc5)NC(=O)[C@@H]5C[C@@H](O)CN5C(=O)[C@H]([C@@H](C)O)NC4=O)cc3)cc2)cc1	MIC			ATCC CCH442	0.2 µg/mL
O=S(=O)(Nc1ccc2c(c1)Sc1ccccc1O2)c1cccc(-[n+]2c(-c3ccccc3)cc(-c3ccccc3)cc2-c2ccccc2)c1	MIC			C316	3 µg/mL
CCCCNC(=O)c1ccc[nH]c1=S	MIC				20 µg/mL
O/N=C(/COc1cccc(Cl)c1)c1ccccc1	MIC	broth dilution	24 h	ATCC 10231	125 µg/mL
CCCCN=c1ssc2ncccc12	MIC				25 µg/mL
CCCCCOc1ccc(-c2ccc(-c3ccc(C(=O)N[C@H]4CCCNC(=O)C5C[C@H](O)N5C(=O)C(C(C)O)NC(=O)C(CCc5ccc(O)cc5)NC(=O)C5C[C@@H](O)CN5C(=O)C(C(C)O)NC4=O)cc3)cc2)cc1	MIC			ATCC 62376	0.39 µg/mL
Clc1ccc(C(Cc2ccccc2Cl)Cn2ccnc2)cc1	MIC				100 µg/mL
CCC(=O)C1Sc2ccccc2N(C2CCCCCCC2)C1=O	MIC			ATCC 10231	≥100 µg/mL
Fc1ccc(/C(Cn2ccnc2)=N/OCc2ccccc2)cc1	MIC			Y0109	128 µg/mL
Cc1onc(-c2cccc(Cl)c2)c1C=O	MIC				>50 µg/mL
O=C1S/C(=C\c2ccc(Cl)cc2)C(=O)N1CC(O)(Cn1nccn1)c1ccc(F)cc1F	MIC80			CaCYP51	4.19 µg/mL
CCCn1sc2ncccc2c1=S	MIC				25 µg/mL
CCCCCOc1ccc(-c2ccc(-c3ccc(C(=O)N[C@H]4CCCNC(=O)C5[C@@H](O)CN5C(=O)C(C(C)O)NC(=O)C(CCc5ccc(O)cc5)NC(=O)C5C[C@@H](O)CN5C(=O)C(C(C)O)NC4=O)cc3)cc2)cc1	MIC			ATCC CCH442	0.39 µg/mL
O=C1S/C(=C\c2ccc(Br)cc2)C(=O)N1CC(O)(Cn1nccn1)c1ccc(F)cc1F	MIC80			CaCYP51	0.029 µg/mL
COc1cncc(-c2ncn(S(=O)(=O)c3ccc(C)cc3)n2)n1	MIC	broth dilution			>256 µg/mL
COc1ccc(/C=C2\CCc3ccccc3C2=O)cc1OC	MIC				25 µg/mL
Cc1cc(-c2ccccc2)cc(C)[n+]1-c1cccc(S(=O)(=O)Nc2ccc3c(c2)Sc2ccccc2O3)c1	MIC			C316	7 µg/mL
CCCCCCC(Cn1ccnc1)c1ccc(F)cc1	MIC				100 µg/mL
C=CCc1ccc(O)c(OC)c1	MIC90	turbidity		2938	500 µg/mL
Clc1ccc(CC(Cn2ccnc2)c2ccc(Cl)cc2Cl)c(Cl)c1	MIC				10 µg/mL
O=C1S/C(=C\c2ccc(F)cc2)C(=O)N1CC(O)(Cn1nccn1)c1ccc(F)cc1F	MIC80			CaCYP51	1.09 µg/mL
Cc1ccc(-c2noc(C)c2C=O)cc1	MIC				50 µg/mL
Clc1ccc(/C(Cn2ccnc2)=N\OCc2ccccc2)cc1	MIC			3M	8 µg/mL
CCCC(=O)/C=C1\Sc2ccccc2N1/C1=C/CCCCCCCCCC1	MIC			ATCC 10231	>100 µg/mL
O=C(CCn1ccnc1)c1cccc(C(O)c2ccc(Br)cc2)c1	MIC	broth dilution		RTCC1024	>64 µg/mL
Cc1cc(C)[n+](-c2ccc(S(=O)(=O)Nc3ccc4c(c3)Sc3ccccc3O4)cc2)c(C)c1	MIC			C316	14 µg/mL
CC1(C)CC[C@]2(C(=O)O)CC[C@]3(C)C(=CC[C@@H]4[C@@]5(C)CC[C@H](O[C@@H]6OC[C@H](O)[C@H](O)C6O)[C@@](C)(CO)[C@@H]5CC[C@]43C)[C@@H]2C1	MFC			Y0109	>100 µg/mL
CCCCCC(Cn1ccnc1)c1ccc(Cl)cc1	MIC				100 µg/mL
Clc1ccc(CC(Cn2ccnc2)c2ccccc2Cl)cc1	MIC				10 µg/mL
COc1ccc(/C=C2\CCc3ccccc3C2=O)cc1	MIC				50 µg/mL
CC1(C)CC[C@]2(C(=O)O)CC[C@]3(C)C(=CC[C@@H]4[C@@]5(C)CC[C@H](OC6O[C@H](CO)[C@@H](O)[C@H](O)[C@H]6OC6O[C@H](CO)[C@@H](O)[C@H](O)[C@H]6O)[C@@](C)(CO)[C@@H]5CC[C@]43C)[C@@H]2C1	MFC			Y0109	>100 µg/mL
Cc1ccc2c(c1)S/C(=C\C(=O)C(C)C)N2C1CCC1	MIC			ATCC 14053	>100 µg/mL
COc1cncc(C(N)=NNS(=O)(=O)c2ccc(C)cc2)n1	MIC	broth dilution			>256 µg/mL
Cc1onc(-c2ccc(OCc3ccccc3)cc2)c1C=O	EC50				>50 µg/mL
OC(CCn1ccnc1)c1cccc(C(O)c2ccc(Br)cc2)c1	MIC	broth dilution		RTCC 1003	>64 µg/mL
Clc1ccc(/C(Cn2ccnc2)=N/OCc2ccccc2)cc1	MIC			3M	64 µg/mL
O=C1CCC/C1=C1/Sc2ccccc2N1C1CCCCCC1	MIC			ATCC 14053	50 µg/mL
COc1cc(NC(C)CCCN)c2nc(C(C)(C)C)ccc2c1Oc1cccc(C(F)(F)F)c1	MFC				>20 µg/mL
CCC(=O)/C=C1\Sc2ccccc2N1C1CCCCCCC1	MIC			ATCC 14053	>100 µg/mL
Cc1ccc(S(=O)(=O)NN=C(N)c2cnccn2)cc1	MIC	broth dilution			>256 µg/mL
COc1cc(/C=C2\COc3ccccc3C2=O)ccc1O	MIC				50 µg/mL
CCCNC(=S)c1ccc[nH]c1=S	MIC				20 µg/mL
O=C1/C(=C/c2ccccc2)CSc2ccc(Cl)cc21	MIC				50 µg/mL
Fc1ccc(CCCCn2c3c(c4cc(F)ccc42)CNCC3)cc1	MIC			1378-48	1 µg/mL
COc1cncc(/C(N)=N/N=C(\N)c2cnccn2)n1	MIC	broth dilution			>256 µg/mL
CC1(C)CC[C@]2(C(=O)O)CC[C@]3(C)C(=CC[C@@H]4[C@@]5(C)CC[C@H](OC6O[C@H](CO)[C@@H](O)[C@H](O)[C@H]6OC6O[C@H](CO)[C@@H](O)[C@H](O)[C@H]6O)C(C)(C)[C@@H]5CC[C@]43C)[C@@H]2C1	MFC			ATCC 90029	>100 µg/mL
CCCCCNC(=O)c1ccc[nH]c1=S	MIC				40 µg/mL
O=C(CCn1ccnc1)c1ccc(Br)cc1	MIC	broth dilution		RTCC 1003	>64 µg/mL
CCCCCOc1ccc(-c2ccc(-c3ccc(C(=O)N[C@H]4CCCNC(=O)[C@@H]5C[C@H](N)CN5C(=O)[C@H]([C@@H](C)O)NC(=O)[C@H](Cc5ccc(O)cc5)NC(=O)[C@@H]5C[C@@H](O)CN5C(=O)[C@H]([C@@H](C)O)NC4=O)cc3)cc2)cc1	MIC			ATCC CCH442	0.2 µg/mL
Clc1ccc(C(Cc2ccccc2)Cn2ccnc2)c(Cl)c1	MIC				100 µg/mL
CC(C)CC(Cn1ccnc1)c1ccc(Cl)cc1Cl	MIC				100 µg/mL
COc1cc(OC/C(=N/O)c2ccccc2)cc(OC)c1OC	MIC	broth dilution	48 h	ATCC 10231	>125 µg/mL

For reference, 6 entries again:

compound	read-out	method	setting	strain	result
CCCCCNC(=O)c1ccc[nH]c1=S	MIC				40 µg/mL
CCCCCOc1ccc(-c2ccc(-c3ccc(C(=O)N[C@H]4CCCNC(=O)[C@@H]5C[C@H](NC)CN5C(=O)[C@H]([C@@H](C)O)NC(=O)[C@H](CCc5ccc(O)cc5)NC(=O)[C@@H]5C[C@@H](O)CN5C(=O)[C@H]([C@@H](C)O)NC4=O)cc3)cc2)cc1	MIC			ATCC CCH442	0.2 µg/mL
CCCCCCCCC(Cn1ccnc1)c1ccc(Br)cc1	MIC				10 µg/mL
CCCNC(=S)c1ccc[nH]c1=S	MIC				20 µg/mL
Cc1ccc2c(c1)S/C(=C\C(=O)C(C)C)N2C1CCC1	MIC			ATCC 14053	>100 µg/mL
Fc1ccc(/C(Cn2ccnc2)=N/OCc2ccccc2)cc1	MIC			Y0109	128 µg/mL

An empty or dashed field is not shown. Conditions beyond the fields shown may differ between rows. ECn: concentration that inhibits the pathogen or its effect by n%.